Assay results taken from patent publication US9650427B2, “Modulators of antiviral signaling pathways and therapeutic uses thereof” (priority 2011, dated 2017).

Test system: RLR/MAVS pathway
Experiment: Reovirus-induced IFN expression in T84 cells, qPCR
Assay type: cell-based, human
Details: T84 cells pretreated 1 hr, infected with Type III Dearing Strain reovirus for 5 hours; FIG. 3

GNRDTLWHLFNTLQRRPGWVEYFI-RQIKIWFQNRRMKWKK
Reovirus-induced Type I and Type III IFN expression: prevented
